Assays:
[1] = tested on: P. falciparum 3D7 parasites; assay: P. falciparum growth inhibition assay, 1-cycle (72 h treatment), SYBR DNA staining (library screen at 2 μg/mL and dose-response); type: cell-based, Plasmodium falciparum
[2] = tested on: P. falciparum 3D7 parasites; assay: P. falciparum growth inhibition assay, 2-cycle (120 h treatment), delayed-death screen and dose-response; type: cell-based, Plasmodium falciparum; conditions: screen at 2 μg/mL
[3] = tested on: T. gondii RH strain (RH-Tub-eYFP) tachyzoites; conditions: 72 h, screen at 2 μg/mL

## CCC(C)C1NC(=O)/C(=C(/C)O)C1=O (stereo not drawn)
[1]; replicate 1
  Pf_72h_%Growth_Rep1: 78.84%
[1]; replicate 2
  Pf_72h_%Growth_Rep2: 104.74%
[2]; replicate 1
  Pf_120h_%Growth_Rep1: 62.50%
[2]; replicate 2
  Pf_120h_%Growth_Rep2: 90.44%
[3]; replicate 1
  Tg_72h_%Growth_Rep1: 82.95%
[3]; replicate 2
  Tg_72h_%Growth_Rep2: 59.53%

— paper PMC12396409, “Screening and hit evaluation of a microbial metabolite library against the pathogenic Plasmodium falciparum and Toxoplasma gondii parasites” (International Journal for Parasitology: Drugs and Drug …, 2025)
